Results of unrelated studies side by side (data: NIAID ChemDB).

Common to all: growth or infection tests; organism: Candida albicans; read-out: MIC100

Blank or dashed fields: not listed here. Neighbouring rows are from separate reports. MIC50, MIC90 and the like: level of inhibition, or share of isolates inhibited.

structure | strain | method | result
O=c1ccc2c(ccc3nc(N4CCN(c5ccccc5F)CC4)sc32)o1 | MTCC 183 | - | 50 µg/mL
Cc1nn(-c2ccccc2)c2nc3nc4c(c(N)c3c(-c3ccc(Cl)cc3)c12)CCCC4 | ATCC 10231 | broth dilution / absorbance | 250 µg/mL
COc1ccc(-c2n[nH]c(COc3nc(C(F)(F)F)nc4ccccc34)n2)cc1OC | MTCC 227 | - | 6.25 µg/mL
CCCCCCCCCCn1cc[n+](COCCCCOC[n+]2ccn(CCCCCCCCCC)c2)c1 | ATCC 90028 | agar diffusion | 8 µM
CCN1CCN(c2nc3ccc4oc(=O)ccc4c3s2)CC1 | MTCC 183 | - | 200 µg/mL
C[C@H]1[C@H](O)[C@@H](C)/C=C/C=C/C=C/C=C/C=C/C=C/C=C/[C@H](O[C@@H]2O[C@H](C)[C@@H](O)[C@H](N)[C@@H]2O)C[C@@H]2O[C@](O)(C[C@@H](O)C[C@@H](O)CC[C@H](O)[C@@H](O)C[C@@H](O)CC(=O)O[C@H]1C)C[C@H](O)[C@H]2C(=O)O | CCC 125 | broth dilution / absorbance | 0.78 µg/mL
CCCCCn1cc[n+](COCCOC[n+]2ccn(CCCCC)c2)c1 | ATCC 90028 | agar diffusion | 712 µM
C[C@H]1[C@H](O)[C@@H](C)/C=C/C=C/C=C/C=C/C=C/C=C/C=C/[C@H](O[C@@H]2O[C@H](C)[C@@H](O)[C@H](N)[C@@H]2O)C[C@@H]2O[C@](O)(C[C@@H](O)C[C@@H](O)CC[C@H](O)[C@@H](O)C[C@@H](O)CC(=O)O[C@H]1C)C[C@H](O)[C@H]2C(=O)O | ATCC 90028 | broth dilution | 0.5 µM
CCCCCCCn1cc[n+](COCCCCCOC[n+]2ccn(CCCCCCC)c2)c1 | ATCC 90028 | agar diffusion | 94 µM
Fc1ccc(-c2n[nH]c(COc3ncnc4ccccc34)n2)cc1 | MTCC 227 | - | 6.25 µg/mL
Cn1c(=O)ccc2c3sc(N4CCN(c5ccccc5)CC4)nc3ccc21 | MTCC 183 | - | 500 µg/mL
CCCCCCCCCCCCn1cc[n+](COCCCCOC[n+]2ccn(CCCCCCCCCCCC)c2)c1 | ATCC 90028 | agar diffusion | 30 µM
Cc1nc(OCc2nc(-c3ccco3)n[nH]2)c2ccccc2n1 | MTCC 227 | - | 12.5 µg/mL
Cc1ccc(-c2c3c(N)c4c(nc3nc3c2c(C)nn3-c2ccccc2)CCCC4)cc1 | ATCC 10231 | broth dilution / absorbance | 31.2 µg/mL
Cc1nc(OCc2nc(-c3ccc(O)cc3)n[nH]2)c2ccccc2n1 | MTCC 227 | - | 12.5 µg/mL
CN1CCN(c2nc3ccc4c(ccc(=O)n4C)c3s2)CC1 | MTCC 183 | - | 100 µg/mL
COc1cc(-c2n[nH]c(COc3nc(C(F)(F)F)nc4ccccc34)n2)cc(OC)c1OC | MTCC 227 | - | 6.25 µg/mL
CCCCCCCCCn1cc[n+](COCCCCOC[n+]2ccn(CCCCCCCCC)c2)c1 | ATCC 90028 | agar diffusion | 9 µM
COc1ccc(-c2n[nH]c(COc3ncnc4ccccc34)n2)cc1 | MTCC 227 | - | 12.5 µg/mL
CCCCCCCCCCCCCCCCn1cc[n+](COCCCOC[n+]2ccn(CCCCCCCCCCCCCCCC)c2)c1 | ATCC 90028 | agar diffusion | 106 µM
Cc1nc(OCc2nc(-c3ccc(Br)cc3)n[nH]2)c2ccccc2n1 | MTCC 227 | - | 12.5 µg/mL
CCCCCCCCn1cc[n+](COCCCCCOC[n+]2ccn(CCCCCCCC)c2)c1 | ATCC 90028 | agar diffusion | 71 µM
Oc1ccc(-c2n[nH]c(COc3nc(C(F)(F)F)nc4ccccc34)n2)cc1 | MTCC 227 | - | 12.5 µg/mL
Cc1ccc(-c2c3c(N)c4c(nc3nc3c2c(C)nn3-c2ccccc2)CCCCC4)cc1 | CCC 129 | broth dilution / absorbance | 250 µg/mL
O=c1ccc2c(ccc3nc(N4CCN(C(c5ccccc5)c5ccc(Cl)cc5)CC4)sc32)o1 | MTCC 183 | - | 62.5 µg/mL
C[C@H]1[C@H](O)[C@@H](C)/C=C/C=C/C=C/C=C/C=C/C=C/C=C/[C@H](O[C@@H]2O[C@H](C)[C@@H](O)[C@H](N)[C@@H]2O)C[C@@H]2O[C@](O)(C[C@@H](O)C[C@@H](O)CC[C@H](O)[C@@H](O)C[C@@H](O)CC(=O)O[C@H]1C)C[C@H](O)[C@H]2C(=O)O | ATCC 10231 | broth dilution | <0.3 µg/mL
Cc1ccc(-c2c3c(N)c4c(nc3nc3c2c(C)nn3-c2ccccc2)CCC4)cc1 | CCC 125 | broth dilution / absorbance | 62.5 µg/mL
Cc1ccc(-c2n[nH]c(COc3ncnc4ccccc34)n2)cc1 | MTCC 227 | - | 12.5 µg/mL